A mixed list of measured activities; the numbers were collected in NIAID ChemDB.

All rows: enzyme or target tests; agent: Hepatitis C virus; target: Nonstructural protein 5B; read-out: inhibition

Inhibition is in % at the dose shown (toxicity tests: loss of growth or viability). Neighbouring rows are from separate reports.

SMILES	dose	result
COc1nc(Nc2ccc3[nH]ncc3c2)nc(NN2CCN(C)CC2)n1	10 µg/mL	59%
CSc1nc(Nc2ccc(N3CCOCC3)cc2)cc(N2CCN(CC(=O)NCCCl)CC2)n1	1 µg/mL	64%
CCN(CCO)c1cc(C(=O)Nc2ccc3cn[nH]c3c2)c(F)cc1F	1 µg/mL	26%
COc1nc(Nc2ccc3[nH]ncc3c2)nc(N2CCN(CCO)CC2)n1	0.1 µg/mL	22%
O=C(Nc1ccc2[nH]ncc2c1)c1cc(NCCN2CCOCC2)c(F)cc1F	10 µg/mL	52%
O=C(NCc1ccccn1)c1ccc(S(=O)(=O)Nc2ccc(N3CCOCC3)cc2)cc1	1 µg/mL	76%
CN(C)CCNc1cc(C(=O)Nc2ccc3cn[nH]c3c2)c(F)cc1F	0.1 µg/mL	0%
CNC(=O)CN1CCN(c2cc(Nc3ccc(N4CCOCC4)cc3)nc(SC)n2)CC1	1 µg/mL	63%
CN(C)C(=O)c1ccc(S(=O)(=O)Nc2ccc(N3CCOCC3)cc2)cc1	1 µg/mL	74%
CC(C)NC1=NC(NC(C)C)N(CN)C(Nc2ccc3cn[nH]c3c2)=N1	10 µg/mL	70%
O=C(Nc1ccc2cn[nH]c2c1)c1cc(NCCO)c(F)cc1F	0.1 µg/mL	20%
COc1nc(NCCc2ccccn2)nc(Nc2ccc3cn[nH]c3c2)n1	1 µg/mL	13%
CCN(CCN(C)C)C(=O)CN1CCN(c2cc(Nc3ccc(N4CCOCC4)cc3)nc(SC)n2)CC1	1 µg/mL	70%
O=C(Nc1ccc2[nH]ncc2c1)c1cc(NCCN2CCCC2)c(F)cc1F	0.1 µg/mL	10%
CN(C)CCN(Cc1ccccc1)C(=O)c1ccc(S(=O)(=O)Nc2ccc(N3CCOCC3)cc2)cc1	1 µg/mL	73%
CSc1nc(Nc2ccc(N3CCOCC3)cc2)cc(N2CCN(CC(=O)NC3CC3)CC2)n1	1 µg/mL	68%
O=C(Nc1ccc2cn[nH]c2c1)c1cc(NCCCn2ccnc2)c(F)cc1F	0.1 µg/mL	30%
COc1nc(NCCCN2CCOCC2)nc(Nc2ccc3cn[nH]c3c2)n1	0.1 µg/mL	40%
CC(Cc1ccccn1)Nc1cc(C(=O)Nc2ccc3cn[nH]c3c2)c(F)cc1F	10 µg/mL	46%
COc1nc(NCCO)nc(Nc2ccc3cn[nH]c3c2)n1	10 µg/mL	81%
O=C(O)c1ccc(S(=O)(=O)Nc2ccc(N3CCOCC3)cc2)cc1	10 µg/mL	93%
COc1nc(NCCN2CCOCC2)nc(Nc2ccc3cn[nH]c3c2)n1	10 µg/mL	46%
O=C(Nc1ccc2cn[nH]c2c1)c1cc(NCCN2CCOCC2)c(F)cc1F	10 µg/mL	28%
COCCNc1nc(Nc2ccc3cn[nH]c3c2)nc(OC)n1	10 µg/mL	63%
CSc1nc(Nc2ccc(N3CCOCC3)cc2)cc(N2CCN(CC(=O)N3CCN(C)CC3)CC2)n1	1 µg/mL	72%

The last 2 rows once more:

COCCNc1nc(Nc2ccc3cn[nH]c3c2)nc(OC)n1 ; dose: 10 µg/mL ; result: 63%
CSc1nc(Nc2ccc(N3CCOCC3)cc2)cc(N2CCN(CC(=O)N3CCN(C)CC3)CC2)n1 ; dose: 1 µg/mL ; result: 72%